From patent US20050186197A1, “Peptide inhibitors of beta lactamases” (published 2005)

Amino acid sequences for entries named in this document (tags omitted). Residues count along the entry.
UniProt P05364, 21-381 limits assumed: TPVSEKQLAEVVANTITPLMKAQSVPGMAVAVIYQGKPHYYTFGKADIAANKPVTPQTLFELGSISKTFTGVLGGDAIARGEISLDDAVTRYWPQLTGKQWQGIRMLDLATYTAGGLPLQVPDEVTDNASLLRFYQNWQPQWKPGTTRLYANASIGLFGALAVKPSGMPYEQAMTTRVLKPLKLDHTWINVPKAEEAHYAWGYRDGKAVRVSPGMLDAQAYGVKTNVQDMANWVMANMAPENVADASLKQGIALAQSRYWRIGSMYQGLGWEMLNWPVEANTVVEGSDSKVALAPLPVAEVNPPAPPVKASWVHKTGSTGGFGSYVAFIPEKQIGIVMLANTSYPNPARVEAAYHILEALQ
UniProt P52699, 19-246 limits assumed: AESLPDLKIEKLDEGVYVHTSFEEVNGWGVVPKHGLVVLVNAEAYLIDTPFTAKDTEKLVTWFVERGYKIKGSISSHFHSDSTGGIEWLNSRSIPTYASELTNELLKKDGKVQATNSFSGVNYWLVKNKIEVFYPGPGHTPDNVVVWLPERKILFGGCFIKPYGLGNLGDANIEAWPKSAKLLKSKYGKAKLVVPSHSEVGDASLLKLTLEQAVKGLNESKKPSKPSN
UniProt P62593, 24-286 limits assumed: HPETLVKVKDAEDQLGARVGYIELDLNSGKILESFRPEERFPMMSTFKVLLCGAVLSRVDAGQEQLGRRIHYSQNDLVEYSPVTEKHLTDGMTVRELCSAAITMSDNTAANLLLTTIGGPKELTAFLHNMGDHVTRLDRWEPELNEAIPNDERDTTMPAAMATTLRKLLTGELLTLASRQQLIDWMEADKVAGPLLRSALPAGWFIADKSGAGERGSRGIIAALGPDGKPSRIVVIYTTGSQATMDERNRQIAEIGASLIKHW

Key:
[1] = biological target: E. cloacae P99 β-lactamase (Enterobacter cloacae, UniProt P05364); assay: β-lactamase inhibition assay, P99; conditions: for Ki: read-out: Ki for inhibition of P99
[2] = biological target: class B zinc-metallo-β-lactamase IMP-1 (Serratia marcescens, UniProt P52699); assay: β-lactamase inhibition assay, IMP-1; conditions: concentrations up to 400 μm
[3] = biological target: P99 β-lactamase (Enterobacter cloacae, UniProt P05364); assay: Mode of inhibition (Km and Vmax, double reciprocal plots), P99
[4] = tested on: B. anthracis Bla1 β-lactamase; assay: β-lactamase inhibition assay, Bla1; conditions: for Ki for Bla1 lower than the Ki for inhibition of TEM-1 β-lactamase: Bla1 versus TEM-1; for Ki: read-out: Ki for inhibition of Bla1
[5] = biological target: T1, TEM-1 β-lactamase (Escherichia coli, UniProt P62593); assay: Mode of inhibition (Km and Vmax, double reciprocal plots), TEM-1
[6] = biological target: T1, TEM-1 β-lactamase; assay: β-lactamase inhibition assay, TEM-1; conditions: for Ki: read-out: Ki for inhibition of TEM-1 β-lactamase
[7] = tested on: Bla1 β-lactamase; assay: Mode of inhibition (Km and Vmax, double reciprocal plots), Bla1
[8] = biological target: T1, TEM-1 β-lactamase; assay: SPOT array binding of TEM-1 β-lactamase-HRP to cellulose-bound peptides; conditions: probed with TEM-1 β-lactamase conjugated to HRP; compared with RRGDYG control peptide

N=C(N)NCCC[C@H](NC(=O)[C@@H](N)CCCNC(=N)N)C(=O)NCC(=O)N[C@@H](Cc1c[nH]cn1)C(=O)N[C@@H](Cc1ccc(O)cc1)C(=O)N[C@@H](Cc1ccc(O)cc1)C(N)=O
Ki [1]: 140 µM | inhibition of IMP-1 [2]: no inhibition | inhibition pattern with respect to β-lactam substrates [3]: competitive inhibition pattern | Vmax for cephalosporin C hydrolysis ([3]; 50 μM RRGHYY—NH2): 590 ± 64 µM/min | Vmax for cephalosporin C hydrolysis ([3]; 100 μm RRGHYY—NH2): 630 ± 47 µM/min | Km ([3]; read-out: Km for cephalosporin C hydrolysis, 50 μM RRGHYY—NH2): 981 µM | Km ([3]; read-out: Km for cephalosporin C hydrolysis, 100 μm RRGHYY—NH2): 1390 µM | Ki for Bla1 lower than the Ki for inhibition of TEM-1 β-lactamase [4]: approximately 3 fold | Ki [4]: 42 µM | inhibition pattern with respect to β-lactam substrates [5]: competitive inhibition pattern | Vmax for cephalosporin C hydrolysis ([5]; 100 μM RRGHYY—NH2): 118 ± 12 µM/min | Vmax for cephalosporin C hydrolysis ([5]; 50 μm RRGHYY—NH2): 105±5 μm/min | Km ([5]; read-out: Km for cephalosporin C hydrolysis, 100 μM RRGHYY—NH2): 1180 µM | Km ([5]; read-out: Km for cephalosporin C hydrolysis, 50 μm RRGHYY—NH2): 771 µM | improvement in affinity relative to HSAYSDTRRGDYG-NH2 ([6]; TEM-1): approximately 2 fold | improvement in binding affinity relative to disulfide bonded HSACSDTRRGDCG-NH2 ([6]; TEM-1): 25 fold | Ki [6]: 136 µM | inhibition pattern with respect to β-lactam substrates [7]: competitive inhibition pattern | Vmax for PenV hydrolysis ([7]; 15 μm RRGHYY—NH2): 250±11 μm/min | Vmax for PenV hydrolysis ([7]; 30 μm RRGHYY—NH2): 243±21 μm/min | Km ([7]; read-out: Km for PenV hydrolysis, 15 μm RRGHYY—NH2): 450 µM | Km ([7]; read-out: Km for PenV hydrolysis, 30 μm RRGHYY—NH2): 609 µM

C[C@H](NC(=O)[C@H](CO)NC(=O)[C@@H](N)Cc1c[nH]cn1)C(=O)N[C@H]1CSSC[C@@H](C(=O)NCC(N)=O)NC(=O)[C@H](CC(=O)O)NC(=O)CNC(=O)[C@H](CCCNC(=N)N)NC(=O)[C@H](CCCNC(=N)N)NC(=O)[C@H]([C@@H](C)O)NC(=O)[C@H](CC(=O)O)NC(=O)[C@H](CO)NC1=O
Ki ([6]; disulfide-bonded version of the peptide): 3500 µM

LRRASLG-NH2
effect on TEM-1 β-lactamase activity ([6]; concentrations up to 4 mM): no effect

C[C@H](NC(=O)[C@H](CO)NC(=O)[C@@H](N)Cc1c[nH]cn1)C(=O)N[C@@H](Cc1ccc(O)cc1)C(=O)N[C@@H](CO)C(=O)N[C@@H](CC(=O)O)C(=O)N[C@H](C(=O)N[C@@H](CCCNC(=N)N)C(=O)N[C@@H](CCCNC(=N)N)C(=O)NCC(=O)N[C@@H](CC(=O)O)C(=O)N[C@@H](Cc1ccc(O)cc1)C(=O)NCC(N)=O)[C@@H](C)O
Ki [1]: 254 µM | Ki for Bla1 lower than the Ki for inhibition of TEM-1 β-lactamase [4]: approximately 4 fold | Ki [4]: 70 µM | improvement in binding affinity relative to disulfide bonded HSACSDTRRGDCG-NH2 ([6]; TEM-1): approximately 10 fold | Ki [6]: 298 µM

N=C(N)NCCC[C@H](NC(=O)[C@@H](N)CCCNC(=N)N)C(N)=O
effect on β-lactamase activity ([1]; P99, concentrations up to 2.0 mM): no effect | effect on β-lactamase activity ([4]; Bla1, concentrations up to 2.0 mM): no effect | effect on β-lactamase activity ([6]; TEM-1, concentrations up to 2.0 mM): no effect

C[C@H](N)C(=O)N[C@@H](C)C(=O)NCC(=O)N[C@@H](Cc1c[nH]cn1)C(=O)N[C@@H](Cc1ccc(O)cc1)C(=O)N[C@@H](Cc1ccc(O)cc1)C(N)=O
increase in Ki for the P99 enzyme on replacement of the arginines with alanines ([1]; relative to RRGHYY): 3 fold | increase in Ki for Bla1 on replacement of the arginines with alanines ([4]; relative to RRGHYY): two-fold | increase in Ki for inhibition of TEM-1 on substitution of the arginines with alanine ([6]; relative to RRGHYY): 3 fold

RRGHYG
binding signal on SPOT array [8]: stronger binding signal

N=C(N)NCCC[C@H](N)C(=O)O
effect on β-lactamase activity ([6]; TEM-1, concentrations up to 2.5 mM): no effect

Where two headings read alike, the source gives them in different places.
